Results of unrelated studies side by side (data: NIAID ChemDB).

Common to all: whole-cell or culture tests; agent: Mycobacterium avium complex; measure: MIC

Two numbers with a dash give a range or band. Conditions beyond the fields shown may differ between rows.

compound,strain,value
Cc1c(CNc2cc(Cl)ccc2Cl)cnc2nc(N)nc(N)c12,NJ168,≤0.13 µg/mL
CC[C@H]1OC(=O)[C@H](C)[C@@H](O[C@H]2C[C@@](C)(OC)[C@@H](OC(C)=O)[C@H](C)O2)[C@H](C)[C@@H](O[C@@H]2O[C@H](C)C[C@H](N(C)C)[C@H]2OC(=O)NNCCc2ccccc2)C(C)(O)C[C@@H](C)/C(=N\OCCCC2CCCCC2)[C@H](C)[C@@H](O)[C@]1(C)O,20092 (clarithromycin-resistant),1.56 µg/mL
Cc1c(CNc2cccc3ccccc23)cnc2nc(N)nc(N)c12,NJ3404,≤0.13 µg/mL
CCCCC(=O)O[C@H]1[C@H](C)[C@@H](O[C@@H]2O[C@H](C)C[C@H](N(C)C)[C@H]2O)C(C)(O)C[C@@H](C)/C(=N\OCCCOc2ccccc2)[C@H](C)[C@@H](O)[C@](C)(O)[C@@H](CC)OC(=O)[C@@H]1C,20096 (clarithromycin-resistant),6.25 µg/mL
Cc1c(CNc2ccc3ncccc3c2)cnc2nc(N)nc(N)c12,NJ3404,≤0.13 µg/mL
CCCCO/N=C1\[C@H](C)CC(C)(O)[C@H](O[C@@H]2O[C@H](C)C[C@H](N(C)C)[C@H]2O)[C@@H](C)[C@H](OC2C[C@@](C)(OC)[C@@H](O)[C@H](C)O2)[C@@H](C)C(=O)O[C@H](CC)[C@@](C)(O)[C@H](O)[C@H]1C,20096 (clarithromycin-resistant),>50 µg/mL
COc1cccc(Sc2ccncc2)c1,NJ211,>12.8 µg/mL
COc1ccc(C(F)(F)F)cc1N(C)Cc1cnc2nc(N)nc(N)c2c1C,NJ3404,≤0.13 µg/mL
CC[C@H]1OC(=O)[C@H](C)[C@@H](O[C@H]2C[C@@](C)(OC)[C@@H](OC(C)=O)[C@H](C)O2)[C@H](C)[C@@H](O[C@@H]2O[C@H](C)C[C@H](N(C)C)[C@H]2OC(=O)NNCCCc2ccccc2)C(C)(O)C[C@@H](C)/C(=N\OCCCC2CCCCC2)[C@H](C)[C@@H](O)[C@]1(C)O,20039 (clarithromycin-susceptible),0.78 µg/mL
CC1(C)N=C(N)N=C(N)N1OCCCOc1cc(Cl)c(Cl)cc1Cl,516,2 µg/mL
CC[C@H]1OC(=O)[C@H](C)[C@@H](O[C@H]2C[C@@](C)(OC)[C@@H](OC(C)=O)[C@H](C)O2)[C@H](C)[C@@H](O[C@@H]2O[C@H](C)C[C@H](N(C)C)[C@H]2OC(=O)NNC2CCCCC2)C(C)(O)C[C@@H](C)/C(=N\OCCCC2CCCCC2)[C@H](C)[C@@H](O)[C@]1(C)O,20039 (clarithromycin-susceptible),0.39 µg/mL
COc1cc(OC)cc(N(C)Cc2cnc3nc(N)nc(N)c3c2C)c1,NJ3404,≤0.13 µg/mL
COc1ccc(CSc2ncnc3nc[nH]c23)cc1,NJ211,>12.8 µg/mL
NNC(=O)c1ccncc1,13034,0.8–2.5 µg/mL
CC1(C)N=C(N)N=C(N)N1OCCCOc1cc(Cl)c(Cl)cc1Cl,DW10,2 µg/mL
COc1ccccc1Sc1ncccn1,NJ211,>12.8 µg/mL
CC[C@H]1OC(=O)[C@H](C)[C@@H](OC2C[C@@](C)(OC)[C@@H](O)[C@H](C)O2)[C@H](C)[C@@H](O[C@@H]2O[C@H](C)C[C@H](N(C)C)[C@H]2O)C(C)(O)C[C@@H](C)/C(=N\OCCOc2ccccc2)[C@H](C)[C@@H](O)[C@]1(C)O,20092 (clarithromycin-resistant),12.5 µg/mL
Cc1c(CNc2cc(F)ccc2F)cnc2nc(N)nc(N)c12,NJ3404,≤0.13 µg/mL
Cc1cccc(CSc2nc(=O)[nH]c3nc[nH]c23)c1,NJ211,>12.8 µg/mL
NNC(=O)c1ccncc1,N-316 (HIV-),2 µg/mL
CC[C@H]1OC(=O)[C@H](C)[C@@H](OC2C[C@@](C)(OC)[C@@H](O)[C@H](C)O2)[C@H](C)[C@@H](O[C@@H]2O[C@H](C)C[C@H](N(C)C)[C@H]2O)C(C)(O)C[C@@H](C)/C(=N\OCCN(C)c2ccccc2)[C@H](C)[C@@H](O)[C@]1(C)O,20039 (clarithromycin-susceptible),1.56 µg/mL
CO[C@H]1/C=C/O[C@@]2(C)Oc3c(C)c(O)c4c(=O)c(c5oc6cc(N7CCN(CC(C)C)CC7)cc(=O)c6nc5c4c3=C2O)NC(=O)/C(C)=C\C=C\[C@H](C)[C@H](O)[C@@H](C)[C@@H](O)[C@@H](C)[C@H](OC(C)=O)[C@@H]1C,N-966 (HIV+),0.0313 µg/mL
Cc1ccc(F)c(NCc2cnc3nc(N)nc(N)c3c2C)c1.O,NJ3404,≤0.13 µg/mL
CC[C@H]1OC(=O)[C@H](C)[C@@H](O)[C@H](C)[C@@H](O[C@@H]2O[C@H](C)C[C@H](N(C)C)[C@H]2O)C(C)(O)C[C@@H](C)/C(=N\OCCCOc2ccccc2)[C@H](C)[C@@H](O)[C@]1(C)O,20039 (clarithromycin-susceptible),>50 µg/mL
CO[C@H]1/C=C/O[C@@]2(C)Oc3c(C)c(O)c4c(O)c(c5c(c4c3C2=O)NC2(CCN(CC(C)C)CC2)N=5)=NC(=O)/C(C)=C\C=C\[C@H](C)[C@H](O)[C@@H](C)[C@@H](O)[C@@H](C)[C@H](OC(C)=O)[C@@H]1C,N-980 (HIV+),0.4 µg/mL
Cc1ccc(C)c(CSc2nc(=O)[nH]c3nc[nH]c23)c1,NJ211,>12.8 µg/mL
Cc1cc(NCc2cnc3nc(N)nc(N)c3c2C)ccc1Br,NJ168,≤0.13 µg/mL

3 of the rows above, restated:

compound,strain,value
CCCCO/N=C1\[C@H](C)CC(C)(O)[C@H](O[C@@H]2O[C@H](C)C[C@H](N(C)C)[C@H]2O)[C@@H](C)[C@H](OC2C[C@@](C)(OC)[C@@H](O)[C@H](C)O2)[C@@H](C)C(=O)O[C@H](CC)[C@@](C)(O)[C@H](O)[C@H]1C,20096 (clarithromycin-resistant),>50 µg/mL
CC[C@H]1OC(=O)[C@H](C)[C@@H](OC2C[C@@](C)(OC)[C@@H](O)[C@H](C)O2)[C@H](C)[C@@H](O[C@@H]2O[C@H](C)C[C@H](N(C)C)[C@H]2O)C(C)(O)C[C@@H](C)/C(=N\OCCN(C)c2ccccc2)[C@H](C)[C@@H](O)[C@]1(C)O,20039 (clarithromycin-susceptible),1.56 µg/mL
Cc1ccc(C)c(CSc2nc(=O)[nH]c3nc[nH]c23)c1,NJ211,>12.8 µg/mL